Measured values taken from patent US20170128489A1 (priority 2014, published 2017).

Test system: influenza A (S31N), A/California/07/2009
Experiment: Miniplaque assay (Part 2) in MDCK cells
Type: cell-based, Influenza A virus
Conditions: calculated from the percent block data

## Copper pinanamine imidazole
  EC50: 19.9 µM
